Source: article PMC3384613
Construct, isoform or probe ends are uncertain for at least one entry.

System: GST-Czf1p (wild type) (Candida albicans)
Experiment: EMSA
Conditions: binding detectable from 25 nM, multiple complexes at higher protein; 12% glycerol, 12 mM HEPES-NaOH pH 7.9, 4 mM Tris-Cl pH 7.9, 90 mM KCl, 2 ug poly(dI-dC), 5 ug BSA, 0.625 ng probe in 20 uL, 30 min at 30 C; recombinant protein; residues 1-385; protein details: GST (N-terminal); label: 32P 5' end label (T4 PNK); probe letters rebuilt from the primers and the genome

Sequence: CAAAACAAGCCAGAATAAAAATATCAACAAAATGGTTTTAACTTTCATTAAAAAACTTTAAAATCTTAACTATTAATTGCTAATGTTGCAGATCAATAATATTGAGCCATGAATGAGAGATATAAACATGTTATAGAACAACAACAACGAGAAAGAAAAAAAAAAGACTACAAACCAAATAGTTGATTTAAGCTATTATAACCTTGAATAGTTTAATTCATTTTCATTTGAGTTTTTTCTTCCCATTGTGTTCCGTAAATGAATTAGAAGAGCATTGGATTGTTTTGAAGCTATTCATGATTATATGGACCCAATAATAACAATAAGACATAACTCATTTAAACATATTCATCTAATCGAAAAAGAAGTATTCAAAGTTTGGGATTATCAACAATAATGTCGGGGAGGCAAATGTATCTAATGCTAAATATTTCTTGCGTCATAACTCATTAAATAGCCCATACTGCATTAATTGTTTAGGTAACACTTGTCCAGAACAATACTTTTTTTTTTAGTGGATAGAATACTATTGTGCCAATCATTTGACTCTTTTGGTACTTCCGGT (double strand) [CZF1 promoter fragment E]
- binding result: binds
